Data source: PubChem BioAssay AID624099 (ICCB-Longwood, 2012)
Aim: 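Knock-downs relieving repression by E2 of an HPV18 LCR luciferase reporter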 (primary screen). Cell system: human C33A cervical carcinoma cells (HPV-negative) stably expressing BPV1 E2 and an HPV18 LCR luciferase reporter. Knock-down reagent: siRNA pool against human genes, 40 nM. Timing: 72 h. Measured: 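Per-well luciferase luminescence, z-scored on each plate against the plate mean and SD with control wells left out, then averaged across three replicate plates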. Scale: mean z-score and z-score: higher = stronger reporter signal, weaker E2 silencing. Hit rule: 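Hit if mean z-score reaches 2 and two or more of three replicate z-scores also reach 2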.
The deposit covers about 21,000 reagents; below is an unselected part. 497 of all reagents (2.4%) count as active. 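Higher z means weaker E2 silencing; only reporter increases were scored, and knock-downs that hurt cell survival may mask genuine repressor factors.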 The numbers tell different reagents against one gene apart.

LOC390217 (retired record) → mean z-score: -0.81; z-score, replicate A: -0.7; z-score, replicate B: -0.55; z-score, replicate C: -1.17; activity call: inactive
AKR1C1 (aldo-keto reductase family 1 member C1) → mean z-score: -1.1; z-score, replicate A: -1.05; z-score, replicate B: -1.05; z-score, replicate C: -1.18; activity call: inactive
NR6A1 (nuclear receptor subfamily 6 group A member 1) → mean z-score: 0.35; z-score, replicate A: 0.43; z-score, replicate B: 0.39; z-score, replicate C: 0.25; activity call: inactive
SPRR1B (small proline rich protein 1B) → mean z-score: 0.37; z-score, replicate A: 0.29; z-score, replicate B: 0.34; z-score, replicate C: 0.46; activity call: inactive
TGIF2 (TGFB induced factor homeobox 2) → mean z-score: 0.45; z-score, replicate A: 0.55; z-score, replicate B: 0.24; z-score, replicate C: 0.57; activity call: inactive
TMEM170A (transmembrane protein 170A) → mean z-score: 0.19; z-score, replicate A: 0.22; z-score, replicate B: 0.21; z-score, replicate C: 0.12; activity call: inactive
RPL23AP32 (ribosomal protein L23a pseudogene 32) → mean z-score: -1.09; z-score, replicate A: -0.98; z-score, replicate B: -0.95; z-score, replicate C: -1.34; activity call: inactive
TMEM190 (transmembrane protein 190) → mean z-score: 2.21; z-score, replicate A: 1.31; z-score, replicate B: 2.25; z-score, replicate C: 3.06; activity call: active
UBE3D (ubiquitin protein ligase E3D) → mean z-score: -0.03; z-score, replicate A: -0.24; z-score, replicate B: -0.02; z-score, replicate C: 0.17; activity call: inactive
AHI1 (Abelson helper integration site 1) → mean z-score: 0.96; z-score, replicate A: 1.11; z-score, replicate B: 0.94; z-score, replicate C: 0.84; activity call: inactive
ZNF117 (zinc finger protein 117) #1 → mean z-score: 0.79; z-score, replicate A: 0.8; z-score, replicate B: 1; z-score, replicate C: 0.55; activity call: inactive
ZNF117 (zinc finger protein 117) #2 → mean z-score: 2.08; z-score, replicate A: 2.48; z-score, replicate B: 1.98; z-score, replicate C: 1.79; activity call: inactive

Only “z-score, replicate B” (2 entries from above):
LOC390217 (retired record): -0.55
AKR1C1 (aldo-keto reductase family 1 member C1): -1.05
